Results of unrelated studies side by side (data: NIAID ChemDB).

Common to all: tests in culture; species: HIV-2; read by: syncytia; measure: EC50

An empty or dashed field is not shown.

SMILES,strain or isolate,cells,result
O=C(c1ccc(F)cc1)c1ccc2[nH]c(=O)oc2c1,ROD,CEM,>40 µg/mL
O=C1c2ccccc2C(=O)N1C/C=C/Cn1ccc(=O)[nH]c1=O,,CEM,>100 µM
CC(C)c1ccc(C(C)C)c(CS(=O)(=O)c2cccc[n+]2[O-])c1,ROD,CEM,≥4 µg/mL
O=C1c2ccccc2C(=O)N1C/C=C\Cn1ccc(=O)[nH]c1=O,,CEM,>100 µM
O=S(=O)(Cc1c(Cl)ccc(Cl)c1Cl)c1cccc[n+]1[O-],ROD,CEM,≥4 µg/mL
O=c1[nH]c2ccc(Cc3ccccc3F)cc2o1,ROD,CEM,>8 µg/mL
Cc1cn([C@H]2C=C[C@@H](CO)O2)c(=O)[nH]c1=O,ROD,CEM + CEM TK-,25 µM
O=C1c2ccccc2C(=O)N1CC1OC1CCl,,CEM,>100 µM
CCCCC(=O)c1ccc2c(c1)oc(=O)n2CCN1CCCCC1,ROD,CEM,>8 µg/mL
Cc1ccc(C)c(C(C#N)Sc2cccc[n+]2[O-])c1,ROD,CEM,>4 µg/mL
O=C(c1cccc(Cl)c1)c1ccc2c(c1)sc(=O)n2Cc1ccccc1,ROD,CEM,>1.6 µg/mL
Cc1ccc(C)c(C(CO)S(=O)(=O)c2ccccn2)c1,ROD,CEM,>100 µg/mL
O=C(c1ccccc1)c1ccc2c(c1)sc(=O)n2Cc1ccccc1,ROD,CEM,>8 µg/mL
Cc1ccc(C)c(C(CC(=O)O)S(=O)(=O)c2cccc[n+]2[O-])c1,ROD,CEM,>20 µg/mL
NC/C=C/Cn1cnc2c(N)ncnc21,,CEM,>50 µM

Repeating the first 2 entries:

O=C(c1ccc(F)cc1)c1ccc2[nH]c(=O)oc2c1 ; strain or isolate: ROD ; cells: CEM ; result: >40 µg/mL
O=C1c2ccccc2C(=O)N1C/C=C/Cn1ccc(=O)[nH]c1=O ; cells: CEM ; result: >100 µM

ECn: concentration that inhibits the pathogen or its effect by n%. Lines come from different laboratories, so protocols vary.